Data as given in PubChem BioAssay AID1259414 (Drosophila RNAi Screening Center, 2018).
The deposit covers about 24,000 reagents; below is a random part of those that have a named target and a result. In the full data, about 1,210 (5%) are marked active. 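Inactive calls also include excluded dsRNAs with several or no targets, genes unexpressed in JW18, and well A1, regardless of score.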 The numbers tell different reagents against one gene apart.

- Screen: 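Fly genes that alter Wolbachia amount inside host cells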 (primary screen)
- Cells: Drosophila JW18 cells infected with Wolbachia
- Reagent: long dsRNA against Drosophila genes, 0.25 µg dsRNA per well of a 384-well plate
- Duration: 5 days
- Conditions: cells persistently infected with Wolbachia before knock-down; no added drug
- Read-out: 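Automated imaging of bacterial rRNA staining divided by host cell count, reported as plate-normalised robust z-score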
- Reading the numbers: Wolbachia per cell robust z: higher = more Wolbachia per host cell than the plate typical
- Active means: 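Hit when robust z is 1.5 or more, or -1.5 or less, in at least two of three replicates; excludes dsRNAs with several or no targets, genes not expressed in JW18 and well A1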

MnM (GeneID 38384) — Wolbachia per cell robust z, rep 1: -2.13; Wolbachia per cell robust z, rep 2: -1.16; Wolbachia per cell robust z, rep 3: -1.21; Call: inactive
sv (GeneID 43825) #1 — Wolbachia per cell robust z, rep 1: 1.09; Wolbachia per cell robust z, rep 2: 1.07; Wolbachia per cell robust z, rep 3: 0.241; Call: inactive
sv (GeneID 43825) #2 — Wolbachia per cell robust z, rep 1: -0.105; Wolbachia per cell robust z, rep 2: -0.587; Wolbachia per cell robust z, rep 3: -5.71; Call: inactive
sv (GeneID 43825) #3 — Wolbachia per cell robust z, rep 1: -1.01; Wolbachia per cell robust z, rep 2: -0.684; Wolbachia per cell robust z, rep 3: -1.59; Call: inactive
prd (GeneID 34629) — Wolbachia per cell robust z, rep 1: -0.16; Wolbachia per cell robust z, rep 2: 0.491; Wolbachia per cell robust z, rep 3: -1.46; Call: inactive
Neto (GeneID 32303) #1 — Wolbachia per cell robust z, rep 1: -2.18; Wolbachia per cell robust z, rep 2: -1.6; Wolbachia per cell robust z, rep 3: -1.02; Call: inactive
Neto (GeneID 32303) #2 — Wolbachia per cell robust z, rep 1: 0.0969; Wolbachia per cell robust z, rep 2: -2.01; Wolbachia per cell robust z, rep 3: -0.234; Call: inactive
Neto (GeneID 32303) #3 — Wolbachia per cell robust z, rep 1: -0.309; Wolbachia per cell robust z, rep 2: -0.0293; Wolbachia per cell robust z, rep 3: 1.27; Call: inactive
Neto (GeneID 32303) #4 — Wolbachia per cell robust z, rep 1: 0.742; Wolbachia per cell robust z, rep 2: -0.475; Wolbachia per cell robust z, rep 3: -2.82; Call: inactive
Neto (GeneID 32303) #5 — Wolbachia per cell robust z, rep 1: -1.07; Wolbachia per cell robust z, rep 2: 0.0607; Wolbachia per cell robust z, rep 3: -4.08; Call: inactive
Smg6 (GeneID 42994) #1 — Wolbachia per cell robust z, rep 1: -0.475; Wolbachia per cell robust z, rep 2: -0.571; Wolbachia per cell robust z, rep 3: 0.307; Call: inactive
Smg6 (GeneID 42994) #2 — Wolbachia per cell robust z, rep 1: -0.155; Wolbachia per cell robust z, rep 2: 0.225; Wolbachia per cell robust z, rep 3: -2.84; Call: inactive
jagn (GeneID 40714) — Wolbachia per cell robust z, rep 1: -2.17; Wolbachia per cell robust z, rep 2: 0.238; Wolbachia per cell robust z, rep 3: 0.579; Call: inactive
pico (GeneID 33003) — Wolbachia per cell robust z, rep 1: -0.752; Wolbachia per cell robust z, rep 2: -0.798; Wolbachia per cell robust z, rep 3: -1.29; Call: inactive
CG14355 (GeneID 41723) — Wolbachia per cell robust z, rep 1: -2.69; Wolbachia per cell robust z, rep 2: -1.03; Wolbachia per cell robust z, rep 3: 0.531; Call: inactive
CG43335 (GeneID 12798413) #1 — Wolbachia per cell robust z, rep 1: -0.855; Wolbachia per cell robust z, rep 2: 0.845; Wolbachia per cell robust z, rep 3: -0.294; Call: inactive
CG43335 (GeneID 12798413) #2 — Wolbachia per cell robust z, rep 1: -0.578; Wolbachia per cell robust z, rep 2: 0.435; Wolbachia per cell robust z, rep 3: -0.057; Call: inactive

2 entries from above, limited to “Wolbachia per cell robust z, rep 2”.
sv (GeneID 43825) #3	-0.684
prd (GeneID 34629)	0.491
